# Data from PMC9312377.
# Legend:
# [1] = biological target: A(H3N2) polymerase complex PA E23G (Influenza A virus, UniProt P31343, E23G, cells depend on it); assay: Minireplicon luciferase reporter assay, BXA susceptibility; details: 5 nM BXA; E23G complex, A(H3N2)
# [2] = test system: A(H1N1)pdm09 polymerase complex PA E23K; assay: as above; details: 5 nM BXA; E23G/K complexes, A(H1N1)pdm09
# [3] = biological target: A(H3N2) polymerase complex PA E23K (Influenza A virus, UniProt P31343, E23K, cells depend on it); assay: as above; details: 5 nM BXA; E23K complex, A(H3N2); not statistically significant
# [4] = test system: A(H1N1)pdm09 polymerase complex PA WT; assay: as above; details: 5 nM BXA; WT complexes of A(H1N1)pdm09 and A(H3N2); normalized to I38T complexes
# [5] = biological target: A(H1N1)pdm09 polymerase complex PA E23K+I38T (Influenza A virus, UniProt C3W5S0, E23K/I38T); assay: as above; details: 5 nM BXA; E23K+I38T complex, A(H1N1)pdm09
# [6] = biological target: A(H3N2) polymerase complex PA E23K+I38T (Influenza A virus, UniProt P31343, E23K/I38T, cells depend on it); assay: as above; details: 5 nM BXA; E23K+I38T complex, A(H3N2)
# [7] = test system: recombinant A(H3N2) PAN WT
# [8] = test system: rg-A/California/04/2009 (H1N1)pdm09 PA E23G+I38T; assay: Plaque reduction assay, BXA susceptibility; details: read-out: BXA susceptibility in the plaque reduction assay (EC50 ± SEM), MDCK cells, 72 or 96 hpi
# [9] = test system: rg-A/California/04/2009 (H1N1)pdm09 PA E23K; assay: Plaque reduction assay, BXA susceptibility; details: read-out: BXA susceptibility in the plaque reduction assay (EC50 ± SEM), MDCK cells, 72 or 96 hpi
# [10] = test system: rg-A/California/04/2009 (H1N1)pdm09 PA E23K+I38T; assay: Plaque reduction assay, BXA susceptibility; details: read-out: BXA susceptibility in the plaque reduction assay (EC50 ± SEM), MDCK cells, 72 or 96 hpi
# [11] = test system: rg-A/Texas/71/2017 (H3N2) PA E23G+I38T; assay: Plaque reduction assay, BXA susceptibility; details: read-out: BXA susceptibility in the plaque reduction assay (EC50 ± SEM), MDCK cells, 72 or 96 hpi
# [12] = test system: rg-A/Texas/71/2017 (H3N2) PA I38T; assay: Plaque reduction assay, BXA susceptibility; details: read-out: BXA susceptibility in the plaque reduction assay (EC50 ± SEM), MDCK cells, 72 or 96 hpi
# [13] = test system: rg-A/Texas/71/2017 (H3N2) PA E23K; assay: Plaque reduction assay, BXA susceptibility; details: read-out: BXA susceptibility in the plaque reduction assay (EC50 ± SEM), MDCK cells, 72 or 96 hpi
# [14] = test system: rg-A/Texas/71/2017 (H3N2) PA E23K+I38T; assay: Plaque reduction assay, BXA susceptibility; details: read-out: BXA susceptibility in the plaque reduction assay (EC50 ± SEM), MDCK cells, 72 or 96 hpi
# [15] = test system: rg-A/California/04/2009 (H1N1)pdm09 PA I38T; assay: Plaque reduction assay, BXA susceptibility; details: read-out: BXA susceptibility in the plaque reduction assay (EC50 ± SEM), MDCK cells, 72 or 96 hpi
# [16] = test system: rg-A/Texas/71/2017 (H3N2) PA E23G; assay: Plaque reduction assay, BXA susceptibility; details: read-out: BXA susceptibility in the plaque reduction assay (EC50 ± SEM), MDCK cells, 72 or 96 hpi
# [17] = biological target: recombinant A(H1N1)pdm09 PAN E23G+I38T (Influenza A virus, UniProt C3W5S0, DEL51-57/DEL61-72/E23G/E59G/I38T); assay: Modified thermofluor assay, BXA-rPAN thermal stabilization; details: for SYPRO Orange signal: 37uM BXA
compound,measurement,setting,value
O=C1c2c(O)c(=O)ccn2N([C@@H]2c3ccccc3SCc3c2ccc(F)c3F)[C@@H]2COCCN12,polymerase complex activity inhibited,[1],57%
same,polymerase complex activity inhibited,[2],40–74%
same,polymerase complex activity inhibited,[3],14%
same,polymerase complex activity inhibited,[4],87%–98%
same,polymerase complex inhibition by BXA,[5],approximately 35%
same,BXA susceptibility of polymerase complex,[6],not BXA susceptible
same,Tm (°C) with BXA,"[7]; A(H3N2) PAN WT 2 μM, BXA 37 μM",79 °C and 79.0 ± 0.1 °C
same,ΔTm (°C),"[7]; A(H3N2) PAN WT, DMSO vs BXA 37 μM",25.0 ± 0.3 °C
same,EC50,[8],30.4 nM
same,EC50,[9],2.8 nM and 2.78 nM
same,EC50,[10],48.3 nM
same,EC50,[11],131 nM
same,EC50,[12],69.8 nM
same,EC50,[13],5.04 nM and 5 nM
same,EC50,[14],402 nM
same,EC50,[15],18.3 nM and 18.2 nM
same,EC50,[16],2.12 nM
same,SYPRO Orange signal,[17]; 30 °C,2647.88 RFU and 2395.74 RFU and 3665.54 RFU
same,SYPRO Orange signal,[17]; 31 °C,3328.75 RFU and 3123.52 RFU and 3637.27 RFU
same,SYPRO Orange signal,[17]; 32 °C,3673.79 RFU and 3125.55 RFU and 4171.85 RFU
same,SYPRO Orange signal,[17]; 33 °C,4101.05 RFU and 3060.34 RFU and 3951.81 RFU
same,SYPRO Orange signal,[17]; 34 °C,4576.19 RFU and 3343.4 RFU and 4630.66 RFU
same,SYPRO Orange signal,[17]; 35 °C,4607.68 RFU and 3528.86 RFU and 4418.86 RFU
same,SYPRO Orange signal,[17]; 36 °C,4818.6 RFU and 3761.07 RFU and 4869.73 RFU
same,SYPRO Orange signal,[17]; 37 °C,4633.54 RFU and 3616.94 RFU and 5063.77 RFU
same,SYPRO Orange signal,[17]; 38 °C,4675.78 RFU and 3340.54 RFU and 4704.53 RFU
same,SYPRO Orange signal,[17]; 39 °C,4398.92 RFU and 3535.53 RFU and 4813.75 RFU
same,SYPRO Orange signal,[17]; 40 °C,4195.88 RFU and 3721.04 RFU and 4878.33 RFU
same,SYPRO Orange signal,[17]; 41 °C,4474.6 RFU and 4118.37 RFU and 5056.58 RFU
same,SYPRO Orange signal,[17]; 42 °C,4431.7 RFU and 4045.57 RFU and 4834.89 RFU
same,SYPRO Orange signal,[17]; 43 °C,4232.52 RFU and 3855.53 RFU and 4998.06 RFU
same,SYPRO Orange signal,[17]; 44 °C,4318.74 RFU and 3962.04 RFU and 4565.28 RFU
same,SYPRO Orange signal,[17]; 45 °C,4441.97 RFU and 4486.34 RFU and 4844.62 RFU
same,SYPRO Orange signal,[17]; 46 °C,4211.77 RFU and 4260.63 RFU and 4968.21 RFU
same,SYPRO Orange signal,[17]; 47 °C,4373.79 RFU and 4230.69 RFU and 5223.57 RFU
same,SYPRO Orange signal,[17]; 48 °C,4498.26 RFU and 4475.58 RFU and 5425.59 RFU
same,SYPRO Orange signal,[17]; 49 °C,4340.35 RFU and 4714.02 RFU and 5268.69 RFU
same,SYPRO Orange signal,[17]; 50 °C,4485.42 RFU and 5458.05 RFU and 5615.3 RFU
same,SYPRO Orange signal,[17]; 51 °C,4604.33 RFU and 5107.27 RFU and 5354.22 RFU
same,SYPRO Orange signal,[17]; 52 °C,5022.8 RFU and 5726.6 RFU and 5626.72 RFU
same,SYPRO Orange signal,[17]; 53 °C,4693.9 RFU and 5357.42 RFU and 5723.4 RFU
same,SYPRO Orange signal,[17]; 54 °C,5145.37 RFU and 5267.66 RFU and 5696.12 RFU
same,SYPRO Orange signal,[17]; 55 °C,5092.31 RFU and 5640.53 RFU and 5805.8 RFU
same,SYPRO Orange signal,[17]; 56 °C,5376.44 RFU and 5740.37 RFU and 6240.29 RFU
same,SYPRO Orange signal,[17]; 57 °C,5795.89 RFU and 6125.1 RFU and 6368.47 RFU
same,SYPRO Orange signal,[17]; 58 °C,6695.88 RFU and 6816.03 RFU and 6922.68 RFU
same,SYPRO Orange signal,[17]; 59 °C,7506.28 RFU and 7927.03 RFU and 8327.92 RFU
same,SYPRO Orange signal,[17]; 60 °C,8418.89 RFU and 8998.05 RFU and 9121.6 RFU
same,SYPRO Orange signal,[17]; 61 °C,10127.5 RFU and 10289.3 RFU and 10665.8 RFU
same,SYPRO Orange signal,[17]; 62 °C,13439.7 RFU and 13687 RFU and 13903.4 RFU
same,SYPRO Orange signal,[17]; 63 °C,18625.9 RFU and 17795.7 RFU and 19339.8 RFU
same,SYPRO Orange signal,[17]; 64 °C,28651.8 RFU and 27296.2 RFU and 29478.9 RFU
same,SYPRO Orange signal,[17]; 65 °C,45763 RFU and 43603.6 RFU and 46881 RFU
same,SYPRO Orange signal,[17]; 66 °C,72246.9 RFU and 67949.6 RFU and 73557.6 RFU
same,Tm (°C) with BXA,"[17]; A(H1N1)pdm09 PAN E23G+I38T 2 μM, BXA 37 μM",67 °C and 67.0 ± 0.1 °C
same,ΔTm (°C),"[17]; A(H1N1)pdm09 PAN E23G+I38T, DMSO vs BXA 37 μM",13.1 ± .3 °C
same,SYPRO Orange signal,"[17]; Panel A, E23G+I38T, 72 °C",239649 RFU and 222711 RFU and 238879 RFU
same,SYPRO Orange signal,"[17]; Panel A, E23G+I38T, 73 °C",241154 RFU and 224478 RFU and 240878 RFU
same,SYPRO Orange signal,"[17]; Panel A, E23G+I38T, 74 °C",240519 RFU and 224874 RFU and 241335 RFU
same,SYPRO Orange signal,"[17]; Panel A, E23G+I38T, 75 °C",238176 RFU and 223710 RFU and 241893 RFU
same,SYPRO Orange signal,"[17]; Panel A, E23G+I38T, 76 °C",235365 RFU and 222482 RFU and 241290 RFU
same,SYPRO Orange signal,"[17]; Panel A, E23G+I38T, 77 °C",231389 RFU and 220568 RFU and 239843 RFU
same,SYPRO Orange signal,"[17]; Panel A, E23G+I38T, 78 °C",226714 RFU and 217929 RFU and 237837 RFU
same,SYPRO Orange signal,"[17]; Panel A, E23G+I38T, 79 °C",221758 RFU and 214594 RFU and 233932 RFU
same,SYPRO Orange signal,"[17]; Panel A, E23G+I38T, 80 °C",216762 RFU and 210971 RFU and 230989 RFU
same,SYPRO Orange signal,"[17]; Panel A, E23G+I38T, 81 °C",211784 RFU and 207261 RFU and 227067 RFU
same,SYPRO Orange signal,"[17]; Panel A, E23G+I38T, 82 °C",206502 RFU and 202939 RFU and 220907 RFU
same,SYPRO Orange signal,"[17]; Panel A, E23G+I38T, 83 °C",200896 RFU and 198763 RFU and 216642 RFU
same,SYPRO Orange signal,"[17]; Panel A, E23G+I38T, 84 °C",195654 RFU and 193947 RFU and 211728 RFU
same,SYPRO Orange signal,"[17]; Panel A, E23G+I38T, 85 °C",190074 RFU and 189227 RFU and 206322 RFU
same,SYPRO Orange signal,"[17]; Panel A, E23G+I38T, 86 °C",185495 RFU and 184506 RFU and 203327 RFU
same,SYPRO Orange signal,"[17]; Panel A, E23G+I38T, 87 °C",180794 RFU and 180062 RFU and 199069 RFU
same,SYPRO Orange signal,"[17]; Panel A, E23G+I38T, 88 °C",173738 RFU and 174159 RFU and 194724 RFU
same,SYPRO Orange signal,"[17]; Panel A, E23G+I38T, 89 °C",171839 RFU and 167967 RFU and 190146 RFU
same,SYPRO Orange signal,"[17]; Panel A, E23G+I38T, 90 °C",166322 RFU and 162300 RFU and 185310 RFU
same,SYPRO Orange signal,"[17]; Panel A, E23G+I38T, 91 °C",162027 RFU and 158294 RFU and 182212 RFU
same,SYPRO Orange signal,"[17]; Panel A, E23G+I38T, 92 °C",158352 RFU and 152530 RFU and 178458 RFU
same,SYPRO Orange signal,"[17]; Panel A, E23G+I38T, 93 °C",153088 RFU and 152064 RFU and 175597 RFU
same,SYPRO Orange signal,"[17]; Panel A, E23G+I38T, 94 °C",144006 RFU and 146726 RFU and 171431 RFU
same,SYPRO Orange signal,"[17]; Panel A, E23G+I38T, 95 °C",127942 RFU and 145249 RFU and 160184 RFU
same,SYPRO Orange signal,"[17]; Panel A, E23G+I38T, 96 °C",128529 RFU and 139589 RFU and 149386 RFU
same,SYPRO Orange signal,"[17]; Panel A, E23G+I38T, 97 °C",122484 RFU and 133504 RFU and 138067 RFU
same,SYPRO Orange signal,"[17]; Panel A, E23G+I38T, 98 °C",114178 RFU and 124290 RFU and 129784 RFU
same,SYPRO Orange signal,"[17]; Panel A, E23G+I38T, 99 °C",107716 RFU and 118936 RFU and 123851 RFU

# Values joined by “and” are separate entries in the source; they are usually repeats but may differ in a detail not shown here. Equal entries are not always repeated.
